How the values were obtained:
[1] = tested on: TSST-1 production in wild-type group-III S. aureus (MN8); assay: TSST-1 ELISA assay; assay type: cell-based; details: for reduction of TSST production: 100 μM, pure cyclic dipeptide, MN8
[2] = target: AgrC-I (Staphylococcus aureus, UniProt O07911); assay: Fluorescence (P3-gfp) reporter gene assay, group-I strain AH1677; assay type: cell-based, S. aureus

Sequences of proteins named here, by UniProt entry; tags and fusion partners are left off. Residues count along the entry.
UniProt O07911, 1-430: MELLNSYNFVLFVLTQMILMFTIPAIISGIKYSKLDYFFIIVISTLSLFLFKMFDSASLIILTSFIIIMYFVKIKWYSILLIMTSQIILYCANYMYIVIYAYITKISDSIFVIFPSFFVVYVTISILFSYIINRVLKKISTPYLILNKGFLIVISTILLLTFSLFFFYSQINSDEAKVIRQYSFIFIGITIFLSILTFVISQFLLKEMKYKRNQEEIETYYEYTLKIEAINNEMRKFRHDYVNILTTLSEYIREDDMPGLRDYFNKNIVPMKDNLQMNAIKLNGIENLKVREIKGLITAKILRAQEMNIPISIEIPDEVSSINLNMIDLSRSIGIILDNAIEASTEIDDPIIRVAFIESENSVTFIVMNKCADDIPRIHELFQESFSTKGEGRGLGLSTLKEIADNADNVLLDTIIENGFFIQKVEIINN

Row | Compound | reduction of TSST production [1] [%] | TSST-1 production by a group-III S. aureus strain ([1]; low μM concentrations) | fold change (loss of ability to inhibit AgrC-I) relative to AIP-III [2] [fold]
1 | cyclo-(Phe-Pro) | 80 | – | –
2 | cyclo-(Tyr-Pro) | 50 | – | –
3 | CC[C@@H](C)C1NC(=O)CN(CC(=O)N[C@H]2CSC(=O)[C@H](CC(C)C)NC(=O)[C@H](CC(C)C)NC(=O)[C@H](Cc3ccccc3)NC(=O)[C@H](CC(=O)O)NC2=O)C1=O (stereo partly drawn) [AIP-III nN2 DKP, (I-nN)-(C-D-F-L-L)] | – | significantly reduced TSST-1 production | > 20

— US20200140489A1 (priority 2013, published 2020)
